Anti-infective test results gathered from many reports (values: NIAID ChemDB through PubChem).

All rows: tests in culture; species: Candida albicans; method: agar diffusion; read-out: zone

Zone: diameter of growth inhibition. Lines come from different laboratories, so protocols vary.

{"structure": "S=c1n(CN2CCN(COc3ccc(COc4ccccc4)cc3)CC2)nc(C23CC4CC(CC(C4)C2)C3)n1-c1ccccc1", "tested at": "200 µg/disc", "strain or isolate": "IFO 0583", "result": "<10 mm"}
{"structure": "Cc1ccc(N2NOC(=O)C2S(=O)(=O)Nc2nc3c([N+](=O)[O-])cccc3s2)cc1", "tested at": "250 µg/mL", "strain or isolate": "MTCC 227", "result": "21 mm"}
{"structure": "COc1ccc(C2C(Cl)C(=O)N2Nc2nc3ccccc3n3nnnc23)cc1", "tested at": "50 µg/mL", "strain or isolate": "ATCC 2091", "result": "8 mm"}
{"structure": "CSC1=NC(c2ccccc2)C(C#N)=C(N)N1", "tested at": "100 µg/mL", "strain or isolate": "MTCC 227", "result": "20 mm"}
{"structure": "CN(C)c1ccc(/C=N/c2nnc(-c3cc4ccccc4oc3=O)o2)cc1", "tested at": "100 µg/mL", "strain or isolate": "ATCC 10231", "result": "16 mm"}
{"structure": "CCOc1ccc2nc(NS(=O)(=O)C3C(=O)ONN3c3ccc(C)cc3)sc2c1", "tested at": "250 µg/mL", "strain or isolate": "MTCC 227", "result": "19 mm"}
{"structure": "O=C1C(Cl)C(c2ccccc2F)N1Nc1nc2ccccc2n2nnnc12", "tested at": "50 µg/mL", "strain or isolate": "ATCC 2091", "result": "8 mm"}
{"structure": "O=[N+]([O-])c1ccc(-c2cn3nc(Cl)sc3n2)cc1", "tested at": "75 µg/mL", "result": "0 mm"}
{"structure": "O=C1CSC(c2ccc([N+](=O)[O-])cc2)N1Nc1nc2ccccc2n2nnnc12", "tested at": "50 µg/mL", "strain or isolate": "ATCC 2091", "result": "10 mm"}
{"structure": "COc1ccccc1/C=C1/S/C(=N\\N=C\\c2c(Cl)cccc2Cl)NC1=O", "tested at": "200 µg", "strain or isolate": "ATCC 10231", "result": "24 mm"}
{"structure": "COc1ccc(/C=N/c2nnc(-c3cc4ccccc4oc3=O)o2)cc1", "tested at": "100 µg/mL", "strain or isolate": "ATCC 10231", "result": "12 mm"}
{"structure": "COc1ccc(-c2cn3nc(Cl)sc3n2)cc1", "tested at": "75 µg/mL", "result": "12 mm"}
{"structure": "C[C@@H]1[C@@H](COCC(=O)O)C[C@@H](O[C@H]2[C@H](O)[C@@H](N(Cc3ccc([N+](=O)[O-])cc3)CC(O)C[N+](C)(C)C)[C@H](O[C@H]3[C@H](O)[C@@H](N(Cc4ccc([N+](=O)[O-])cc4)CC(O)C[N+](C)(C)C)[C@H](C)O[C@@H]3COCC(=O)O)O[C@@H]2COCC(=O)O)[C@H](N(Cc2ccc([N+](=O)[O-])cc2)CC(O)C[N+](C)(C)C)[C@H]1O", "tested at": "1 mg/mL", "strain or isolate": "RCMB 05031", "result": "22.3 mm"}
{"structure": "CS(=O)(=O)c1nc(N)c(C#N)c(-c2cccc([N+](=O)[O-])c2)n1", "tested at": "25 µg/mL", "strain or isolate": "MTCC 227", "result": "16 mm"}
{"structure": "CCN1CCN(Cn2nc(C34CC5CC(CC(C5)C3)C4)n(-c3ccccc3)c2=S)CC1", "tested at": "200 µg/disc", "strain or isolate": "IFO 0583", "result": "<10 mm"}
{"structure": "CC(=O)N1CCN(c2ccc(OC[C@H]3CO[C@](Cn4ccnc4)(c4ccc(Cl)cc4Cl)O3)cc2)CC1", "tested at": "100 µg/mL", "strain or isolate": "ATCC 10231", "result": "20 mm"}
{"structure": "Cc1ccc(N2NOC(=O)C2S(=O)(=O)Nc2ccc(-n3c(-c4ccccc4Cl)nc4ccccc4c3=O)cc2)cc1", "tested at": "250 µg/mL", "strain or isolate": "MTCC 227", "result": "19 mm"}
{"structure": "C[C@H]1[C@H](O)[C@@H](C)/C=C/C=C/C=C/C=C/C=C/C=C/C=C/[C@H](O[C@@H]2O[C@H](C)[C@@H](O)[C@H](N)[C@@H]2O)C[C@@H]2O[C@](O)(C[C@@H](O)C[C@@H](O)CC[C@H](O)[C@@H](O)C[C@@H](O)CC(=O)O[C@H]1C)C[C@H](O)[C@H]2C(=O)O", "tested at": "100 µg/disc", "strain or isolate": "Ca4", "result": "21 mm"}
{"structure": "O=C1CSC(c2ccc(F)cc2)N1Nc1nc2ccccc2n2nnnc12", "tested at": "100 µg/mL", "strain or isolate": "ATCC 2091", "result": "11 mm"}
{"structure": "COc1ccc(CN(CC(O)C[N+](C)(C)C)[C@@H]2[C@@H](O)[C@H](O[C@@H]3O[C@H](COCC(=O)O)[C@@H](O[C@@H]4C[C@H](COCC(=O)O)[C@@H](C)[C@H](O)[C@H]4N(Cc4ccc(OC)c(OC)c4)CC(O)C[N+](C)(C)C)[C@H](O)[C@H]3N(Cc3ccc(OC)c(OC)c3)CC(O)C[N+](C)(C)C)[C@@H](COCC(=O)O)O[C@H]2C)cc1OC", "tested at": "1 mg/mL", "strain or isolate": "RCMB 05031", "result": "12.7 mm"}
{"structure": "CCC(C)n1ncn(-c2ccc(N3CCN(c4ccc(OC[C@H]5CO[C@](Cn6cncn6)(c6ccc(Cl)cc6Cl)O5)cc4)CC3)cc2)c1=O", "tested at": "100 µg", "strain or isolate": "ATCC 90028", "result": "17 mm"}
{"structure": "O=C1N/C(=N/N=C/c2c(Cl)cccc2Cl)S/C1=C/c1ccc(Br)cc1", "tested at": "200 µg", "strain or isolate": "ATCC 10231", "result": "9 mm"}
{"structure": "CSC1=NC(/C=C/c2ccccc2)C(C#N)=C(N)N1", "tested at": "25 µg/mL", "strain or isolate": "MTCC 227", "result": "17 mm"}
{"structure": "C/C=C/C1=CC2=CC(=O)[C@](C)(OC(=O)c3c(C)cc(O)cc3OC)C(=O)C2=CO1", "tested at": "1 µg/disc", "strain or isolate": "ATCC 64548", "result": "0 mm"}
{"structure": "O=C1C(Cl)C(c2ccc(C(F)(F)F)cc2)N1Nc1nc2ccccc2n2nnnc12", "tested at": "100 µg/mL", "strain or isolate": "ATCC 2091", "result": "9 mm"}
{"structure": "CS(=O)(=O)c1nc(N)c(C#N)c(-c2ccccc2O)n1", "tested at": "50 µg/mL", "strain or isolate": "MTCC 227", "result": "17 mm"}
{"structure": "Cc1ccc(-c2cn3nc([N+](=O)[O-])sc3n2)cc1", "tested at": "75 µg/mL", "result": "0 mm"}
{"structure": "C[C@@H]1[C@@H](COCC(=O)O)C[C@@H](O[C@H]2[C@H](O)[C@@H](N(Cc3ccccc3)CC(O)C[N+](C)(C)C)[C@H](O[C@H]3[C@H](O)[C@@H](N(Cc4ccccc4)CC(O)C[N+](C)(C)C)[C@H](C)O[C@@H]3COCC(=O)O)O[C@@H]2COCC(=O)O)[C@H](N(Cc2ccccc2)CC(O)C[N+](C)(C)C)[C@H]1O", "tested at": "1 mg/mL", "strain or isolate": "RCMB 05031", "result": "15.6 mm"}
{"structure": "S=c1n(CN2CCN(c3ccccn3)CC2)nc(C23CC4CC(CC(C4)C2)C3)n1-c1ccccc1", "tested at": "200 µg/disc", "strain or isolate": "IFO 0583", "result": "13 mm"}
{"structure": "COc1ccc(/C=N/c2nnc(-c3cc4ccccc4oc3=O)o2)cc1OC", "tested at": "100 µg/mL", "strain or isolate": "ATCC 10231", "result": "10 mm"}
{"structure": "Clc1nn2cc(-c3ccc(Br)cc3)nc2s1", "tested at": "50 µg/mL", "result": "14 mm"}
{"structure": "O=C1N/C(=N/N=C/c2c(Cl)cccc2Cl)S/C1=C/c1coc2ccc(Cl)cc2c1=O", "tested at": "200 µg", "strain or isolate": "ATCC 10231", "result": "0 mm"}
{"structure": "O=C1C(Cl)C(c2ccc(Cl)cc2)N1Nc1nc2ccccc2n2nnnc12", "tested at": "100 µg/mL", "strain or isolate": "ATCC 2091", "result": "10 mm"}
{"structure": "CCN(CC)CCn1nc(C23CC4CC(CC(C4)C2)C3)n(C)c1=S", "tested at": "200 µg/disc", "strain or isolate": "IFO 0583", "result": "<10 mm"}
{"structure": "Clc1ccc(-c2cn3nc(Cl)sc3n2)cc1", "tested at": "50 µg/mL", "result": "12 mm"}
{"structure": "CS(=O)(=O)c1nc(N)c(C#N)c(-c2ccc(O)cc2)n1", "tested at": "50 µg/mL", "strain or isolate": "MTCC 227", "result": "17 mm"}
{"structure": "Cc1ccc(N2NOC(=O)C2S(=O)(=O)Nc2ccc(-n3c(-c4ccccc4[N+](=O)[O-])nc4ccccc4c3=O)cc2)cc1", "tested at": "250 µg/mL", "strain or isolate": "MTCC 227", "result": "23 mm"}
{"structure": "O=c1oc2ccccc2cc1-c1nnc(/N=C/c2ccccc2)o1", "tested at": "100 µg/mL", "strain or isolate": "ATCC 10231", "result": "12 mm"}
{"structure": "O=C1C(Cl)C(c2ccccc2[N+](=O)[O-])N1Nc1nc2ccccc2n2nnnc12", "tested at": "50 µg/mL", "strain or isolate": "ATCC 2091", "result": "8 mm"}
{"structure": "C[C@@H]1[C@@H](COCC(=O)O)C[C@@H](O[C@H]2[C@H](O)[C@@H](N(Cc3cccs3)CC(O)C[N+](C)(C)C)[C@H](O[C@H]3[C@H](O)[C@@H](N(Cc4cccs4)CC(O)C[N+](C)(C)C)[C@H](C)O[C@@H]3COCC(=O)O)O[C@@H]2COCC(=O)O)[C@H](N(Cc2cccs2)CC(O)C[N+](C)(C)C)[C@H]1O", "tested at": "1 mg/mL", "strain or isolate": "RCMB 05031", "result": "17.3 mm"}
{"structure": "CS(=O)(=O)c1nc(N)c(C#N)c(-c2ccccc2Cl)n1", "tested at": "50 µg/mL", "strain or isolate": "MTCC 227", "result": "18 mm"}
{"structure": "Cc1ccc2occ(/C=C3/S/C(=N\\N=C\\c4c(Cl)cccc4Cl)NC3=O)c(=O)c2c1", "tested at": "200 µg", "strain or isolate": "ATCC 10231", "result": "0 mm"}
{"structure": "CSC1=NC(c2ccccc2Cl)C(C#N)=C(N)N1", "tested at": "50 µg/mL", "strain or isolate": "MTCC 227", "result": "17 mm"}
{"structure": "CCOC(=O)CSc1nnc(C23CC4CC(CC(C4)C2)C3)n1-c1ccccc1", "tested at": "200 µg/disc", "strain or isolate": "IFO 0583", "result": "12 mm"}
{"structure": "O=C1C(Cl)C(c2ccccc2)N1Nc1nc2ccccc2n2nnnc12", "tested at": "50 µg/mL", "strain or isolate": "ATCC 2091", "result": "7 mm"}

Again, the opening 5 rows:

structure,tested at,strain or isolate,result
S=c1n(CN2CCN(COc3ccc(COc4ccccc4)cc3)CC2)nc(C23CC4CC(CC(C4)C2)C3)n1-c1ccccc1,200 µg/disc,IFO 0583,<10 mm
Cc1ccc(N2NOC(=O)C2S(=O)(=O)Nc2nc3c([N+](=O)[O-])cccc3s2)cc1,250 µg/mL,MTCC 227,21 mm
COc1ccc(C2C(Cl)C(=O)N2Nc2nc3ccccc3n3nnnc23)cc1,50 µg/mL,ATCC 2091,8 mm
CSC1=NC(c2ccccc2)C(C#N)=C(N)N1,100 µg/mL,MTCC 227,20 mm
CN(C)c1ccc(/C=N/c2nnc(-c3cc4ccccc4oc3=O)o2)cc1,100 µg/mL,ATCC 10231,16 mm